# In PMC8812913 (PLoS Neglected Tropical Diseases, 2022):
# Conditions: hamster, in vivo
structure (smiles),measurement,value
CNc1nc(N)nc2c1ncn2C1OC(COP(=O)(NC(C)C(=O)OC(C)C)Oc2ccccc2)C(O)C1(C)F (stereo not shown) [AT-752],Mean wt. change,2.2 ± 0.8 g
